Experimental data as given in PubChem BioAssay AID588824 (The Scripps Research Institute Molecular Screening Center, 2011).
The list shows a part of the results, in another mix than the full data. The source made the active and inactive calls. Cut-off read from the data, not from the text of the source: active = inhibition above about 25%; inactive = the rest.

Experiment: VP16 transactivation inhibitors, counter-screen for SRC1 inhibitor project, cell-based, luminescence, high throughput (AID 588824)
Conditions: cell-based VP16 transactivation luciferase luminescence; at 3.6 µM; hits give high values
For `CC(C)c1ccc(OP(=O)(Nc2ccccn2)Oc2ccccc2F)cc1` (stereo unspecified), the inhibition was inactive: 7.71%.
